A mixed list of measured activities; the numbers were collected in NIAID ChemDB.

Shared fields: tests in culture; agent: Candida albicans

Conditions beyond the fields shown may differ between rows. Blank or dashed fields: not listed here. A number after MIC or MFC names an inhibition level or a share of isolates. ECn: concentration that inhibits the pathogen or its effect by n%.

{"compound": "CCC[C@H](N)C(=O)N[C@H]1CCN(c2c(F)cn3c(=O)c(C(=O)O)cc(C4CC4)c3c2C)C1.Cl", "strain": "CCH442", "measure": "MIC", "value": ">100 µg/mL"}
{"compound": "CCC(C)n1ncn(-c2ccc(N3CCN(c4ccc(OC[C@H]5CO[C@](Cn6cncn6)(c6ccc(Cl)cc6Cl)O5)cc4)CC3)cc2)c1=O", "method": "broth dilution", "strain": "ATCC 76615", "measure": "MIC80", "value": "0.0625 µg/mL"}
{"compound": "COc1cc(O)c2c(c1)C(=O)c1c(cc3c(c1O)-c1c(cc(C)c(C(=O)NC(C)C(=O)O)c1O)[C@H](OC1OC(C)CC(=O)C1O)[C@H]3O)C2=O", "strain": "A9540", "measure": "MIC", "value": "3.1 µg/mL"}
{"compound": "C[C@@H]1[C@H](O)[C@@H](C)/C=C/C=C/CC/C=C/C=C/C=C/C=C/C(O[C@H]2O[C@H](C)[C@@H](O)[C@H](N)[C@@H]2O)CC2O[C@](O)(CC(O)C(O)CCC(O)CC(O)CC(O)CC(=O)O[C@H]1C)CC(O)C2C(=O)O", "method": "broth dilution", "measure": "MIC", "value": "1500 µM"}
{"compound": "Cc1cc(Cl)nc(NC(c2ccc(Cl)cc2)P(=O)(Oc2ccccc2)Oc2ccccc2)n1", "method": "agar diffusion / agar", "measure": "MIC", "value": "100 µg/mL"}
{"compound": "Cc1nn(-c2ccccc2)c2c1C(c1c(O)c3ccccc3oc1=O)c1c(oc3ccccc3c1=O)O2", "method": "agar diffusion / agar", "measure": "MFC", "value": "100 µg/mL"}
{"compound": "CCN1C(C#N)=C(C#N)N=C(c2cccs2)C1/C=C/c1ccc(-c2ccccc2)cc1", "method": "broth dilution / visual reading", "strain": "RCPF Y-401/NCTC 885-653", "measure": "MIC", "value": ">100 µg/mL"}
{"compound": "NC(=O)c1ncn([C@@H]2O[C@H](CO)[C@@H](O)[C@H]2O)c1Cl", "measure": "MIC", "value": "0.3 µM"}
{"compound": "CCN1C(C#N)=C(C#N)N=C(c2ccsc2)C1/C=C/c1ccc(-c2ccccc2)cc1", "method": "broth dilution / visual reading", "strain": "RCPF Y-401/NCTC 885-653", "measure": "MIC", "value": ">100 µg/mL"}
{"compound": "CCCCCCSc1ccc(N=C(N)N)cc1", "strain": "ATCC 44859", "measure": "MIC80", "value": "31.25 µM"}
{"compound": "CCOC(=O)C1C(c2ccccc2)CC(c2ccc(OC)cc2)=CC12NCCN2", "strain": "CaCYP51", "measure": "MIC", "value": "12.5 µg/mL"}
{"compound": "CN(C/C=C/C#CC(C)(C)C)Cc1cccc2ccccc12", "measure": "MFC", "value": "128 µg/mL"}
{"compound": "CCN1CC(c2ccccc2)=NC(C#N)=C1C#N", "method": "broth dilution / visual reading", "strain": "RCPF Y-401/NCTC 885-653", "measure": "MIC", "value": ">100 µg/mL"}
{"compound": "C[C@H]1[C@H](O)[C@@H](C)/C=C/C=C/C=C/C=C/C=C/C=C/C=C/[C@H](O[C@@H]2O[C@H](C)[C@@H](O)[C@H](N)[C@@H]2O)C[C@@H]2O[C@](O)(C[C@@H](O)C[C@@H](O)CC[C@H](O)[C@@H](O)C[C@@H](O)CC(=O)O[C@H]1C)C[C@H](O)[C@H]2C(=O)O", "measure": "MIC", "value": "0.06 µg/mL"}
{"compound": "CC(=O)Oc1ccc(/C=C/c2cc(OC(C)=O)cc(OC(C)=O)c2)cc1", "method": "broth dilution", "strain": "SC5314", "measure": "MIC95", "value": ">300 µg/mL"}
{"compound": "CCC[C@H](N)[C@@H]1CCN(c2c(F)cn3c(=O)c(C(=O)O)cc(C4CC4)c3c2C)C1.Cl", "strain": "CCH442", "measure": "MIC", "value": "6.2 µg/mL"}
{"compound": "Cc1cc(Cl)nc(NC(c2cccc([N+](=O)[O-])c2)P(=O)(Oc2ccccc2)Oc2ccccc2)n1", "method": "agar diffusion / agar", "measure": "MIC", "value": "10 µg/mL"}
{"compound": "CCCCCOC(=O)/C=C/C(=O)OCCCCC", "strain": "ATCC 10231", "measure": "MIC", "value": ">100 µg/mL"}
{"compound": "COc1cc(O)c2c(c1)C(=O)c1c(cc3c(c1O)-c1c(cc(C)c(C(=O)NC(C)C(=O)O)c1O)[C@H](OC1OC(C)C(F)C(OC4OCC(O)C(O)C4O)C1O)[C@H]3O)C2=O", "strain": "A9540", "measure": "MIC", "value": "12.5 µg/mL"}
{"compound": "COc1ccc(C2=[N+]([O-])c3ccccc3C2=O)cc1", "measure": "MIC", "value": ">125 µg/mL"}
{"compound": "COc1cc(O)c2c(c1)C(=O)c1c(cc3c(c1O)-c1c(cc(C)c(C(=O)NC(C)C(=O)O)c1O)[C@H](OC1OC(C)C(F)C(O)C1O)[C@H]3O)C2=O", "strain": "A9540", "measure": "MIC", "value": "6.3 µg/mL"}
{"compound": "CCCCCCCCCCCCCCCSc1ccc(N=C(N)N)cc1", "strain": "ATCC 44859", "measure": "MIC80", "value": "250 µM"}
{"compound": "CCOC(=O)C1C(c2ccc(F)cc2)CC(c2ccccc2)=CC12NCCN2", "strain": "CaCYP51", "measure": "MIC", "value": "200 µg/mL"}
{"compound": "O[C@](Cn1cncn1)(Cn1cnc(/C=C/c2ccc(OCC(F)(F)C(F)F)cc2)n1)c1ccc(F)cc1F", "strain": "25 strains", "measure": "Mean MIC80", "value": "0.0037 µg/mL"}
{"compound": "CCOC(=O)C1C(c2ccc(C)cc2)CC(c2ccccc2)=CC12NCCN2", "measure": "MIC", "value": "25 µg/mL"}
{"compound": "COc1ccc2c(c1)C(=O)C(c1ccc(-c3ccc(Cl)cc3)cc1)=[N+]2[O-]", "measure": "MFC", "value": ">62.5 µg/mL"}
{"compound": "Nc1[nH]c(=O)ncc1F", "measure": "MIC", "value": "0.5 µg/mL"}
{"compound": "CCOP(=O)(OCC)C(F)(F)[C@@H]1[C@@H](O)[C@H](O)[C@H](CO)N1CCNC1[C@@H](CO)O[C@H](OC)[C@H](NC(C)=O)[C@H]1O", "measure": "MIC", "value": ">128 µg/mL"}
{"compound": "C[C@@H]1[C@H](O)[C@@H](C)/C=C/C=C/C=C/C=C/C=C/C=C/C=C/[C@H](O[C@@H]2O[C@H](C)[C@@H](O)[C@H](N)[C@@H]2O)C[C@@H]2O[C@](O)(C[C@@H](O)C[C@@H](O)[C@H](O)CC[C@@H](O)C[C@@H](O)CC(=O)O[C@H]1C)C[C@H](O)[C@H]2C(=O)O", "method": "broth dilution", "strain": "SC5314", "measure": "EC50", "value": "0.28 µg/mL"}
{"compound": "Oc1ccc(/C=C/c2cc(O)cc(O)c2)cc1", "method": "broth dilution", "strain": "SC5314", "measure": "MIC95", "value": ">300 µg/mL"}
{"compound": "CCOC(=O)C1C(c2ccc(OC)cc2)CC(c2ccccc2)=CC12NCCN2", "strain": "CaCYP51", "measure": "MIC", "value": "25 µg/mL"}
{"compound": "CN[C@@H]1[C@H](O[C@@H]2OC[C@@H](O)[C@H](O)[C@H]2O)[C@@H](O)[C@H](O[C@H]2c3cc(C)c(C(=O)N[C@H](C)C(=O)O)c(O)c3-c3c(cc4c(c3O)C(=O)c3cc(OC)cc(O)c3C4=O)[C@@H]2O)O[C@@H]1C", "strain": "A9540", "measure": "MIC", "value": "6.3 µg/mL"}
{"compound": "O=c1c2ccccc2ncn1NC(c1ccc(Cl)cc1)P(=O)(Oc1ccccc1)Oc1ccccc1", "method": "agar diffusion / agar", "measure": "MIC", "value": "100 µg/mL"}
{"compound": "COc1cc(O)c2c(c1)C(=O)c1c(cc3c(c1O)-c1c(cc(C)c(C(=O)NC(C)C(=O)O)c1O)[C@H](OC1OCC(O)C(O)C1O)[C@H]3O)C2=O", "strain": "A9540", "measure": "MIC", "value": "25 µg/mL"}
{"compound": "C=C(c1ccccc1OCc1cccc(Cl)c1)n1ccnc1", "measure": "Geometric mean MIC", "value": "33.1 µg/mL"}
{"compound": "COC(=O)/C=C1/NN=C(c2ccccn2)N(c2ccccn2)C1=O", "method": "agar diffusion", "strain": "Clinical isolate", "measure": "MIC50", "value": "16 µg/mL"}
{"compound": "COc1ccc2c(c1)C(=O)C(c1cccnc1)=[N+]2[O-]", "measure": "MFC", "value": "15.63 µg/mL"}
{"compound": "COC(=O)[C@@H](Br)[C@@H](F)C(=O)OC", "strain": "ATCC 10231", "measure": "MIC", "value": "50 µg/mL"}
{"compound": "CCN1CC(c2ccccc2)NC(C#N)=C1C#N", "method": "broth dilution / visual reading", "strain": "RCPF Y-401/NCTC 885-653", "measure": "MIC", "value": ">100 µg/mL"}
{"compound": "CCCCCCOC(=O)C(F)C(Br)C(=O)OCCCCCC", "strain": "ATCC 10231", "measure": "MIC", "value": ">100 µg/mL"}
{"compound": "CCOC(=O)C1C(c2ccc(C)cc2)CC(c2ccc(Cl)cc2)=CC12NCCN2", "measure": "MIC", "value": "12.5 µg/mL"}
{"compound": "CCCCCCOc1ccc(N=C(N)N)cc1", "strain": "ATCC 44859", "measure": "MIC80", "value": "125 µM"}
{"compound": "Oc1ccc(/C=C/c2cc(O)cc(O)c2)cc1", "method": "turbidity", "measure": "MIC80", "value": ">45.65 µg/mL"}
{"compound": "c1ccc(-c2ccc(C(c3ccccc3)n3ccnc3)cc2)cc1", "measure": "MIC", "value": ">125 µg/mL"}
{"compound": "Cc1c(N2CC3CCC(N)C3C2)c(F)cn2c(=O)c(C(=O)O)cc(C3CC3)c12.Cl", "strain": "CCH442", "measure": "MIC", "value": ">100 µg/mL"}
{"compound": "Clc1ccc(CCC(Cn2ccnc2)Sc2c(Cl)cccc2Cl)cc1", "measure": "MIC", "value": "6 µg/mL"}
{"compound": "Nc1nc(=O)n([C@H]2CS[C@@H](CO)O2)cc1F", "strain": "183 strains", "measure": "MIC50", "value": "0.5 µg/mL"}
{"compound": "CCCOC(=O)/C=C/C(=O)OCCC", "strain": "ATCC 10231", "measure": "MIC", "value": ">100 µg/mL"}
{"compound": "COc1ccc(/C=C/c2cc(O)cc(OC)c2)cc1", "method": "broth dilution", "strain": "SC5314", "measure": "MIC95", "value": "32 µg/mL"}
{"compound": "CCCCCOC(=O)/C=C\\C(=O)OCCCCC", "strain": "ATCC 10231", "measure": "MIC", "value": ">100 µg/mL"}
{"compound": "O=C1C(c2ccc(Cl)cc2)=[N+]([O-])c2cccnc21", "measure": "MIC", "value": "15.63 µg/mL"}
{"compound": "CCCCSc1ccc(N=C(N)N)cc1", "strain": "ATCC 44859", "measure": "MIC80", "value": "1000 µM"}
{"compound": "CCN1CC(c2cccs2)=NC(C#N)=C1C#N", "method": "broth dilution / visual reading", "strain": "RCPF Y-401/NCTC 885-653", "measure": "MIC", "value": ">100 µg/mL"}
{"compound": "Nn1cnc2ccccc2c1=O", "method": "agar diffusion / agar", "measure": "MIC", "value": "1000 µg/mL"}
{"compound": "CCOC(=O)C1C(c2ccccc2)CC(c2ccccc2)=CC12NCCN2", "measure": "MIC", "value": "100 µg/mL"}
{"compound": "CC(=O)Oc1cc(O)cc(/C=C/c2ccc(O)cc2)c1", "method": "broth dilution", "strain": "SC5314", "measure": "MIC95", "value": ">300 µg/mL"}
{"compound": "Clc1ccc(COC(Cn2ccnc2)c2ccc(Cl)cc2Cl)c(Cl)c1", "strain": "11 isolates", "measure": "Geometric mean MIC", "value": "15.5 µg/mL"}
{"compound": "Cc1ccc2occ(C(c3c(O)c4ccccc4oc3=O)c3c(O)c4ccccc4oc3=O)c(=O)c2c1", "method": "agar diffusion / agar", "measure": "MFC", "value": "50 µg/mL"}
{"compound": "Cc1c(N2CCOCC2CN)c(F)cn2c(=O)c(C(=O)O)cc(C3CC3)c12.Cl", "strain": "CCH442", "measure": "MIC", "value": ">100 µg/mL"}
{"compound": "CCC(C)(C)c1ccc(CC(C)CN2C[C@@H](C)O[C@@H](C)C2)cc1", "measure": "MFC", "value": "64 µg/mL"}
{"compound": "COc1cc(O)c2c(c1)C(=O)c1c(cc3c(c1O)-c1c(cc(C)c(C(=O)NC(C)C(=O)O)c1O)[C@H](OC1COC4C(OC5OCC(O)C(O)C5O)C1OC(=O)N4C)[C@H]3O)C2=O", "strain": "A9540", "measure": "MIC", "value": "6.3 µg/mL"}
{"compound": "O=C1C(c2ccc(Oc3ccccc3)cc2)=[N+]([O-])c2ccccc21", "measure": "MIC", "value": ">125 µg/mL"}
{"compound": "NC(N)=Nc1ccc(SCc2ccccc2)cc1", "strain": "ATCC 44859", "measure": "MIC80", "value": "250 µM"}
{"compound": "O=C1C(c2ccc(Cl)cc2)=[N+]([O-])c2cc[n+]([O-])cc21", "measure": "MIC", "value": "15.63 µg/mL"}
{"compound": "Cc1c(N2C[C@@H](C)N[C@@H](C)C2)c(F)cn2c(=O)c(C(=O)O)cc(C3CC3)c12.Cl", "strain": "CCH442", "measure": "MIC", "value": ">100 µg/mL"}
{"compound": "CC(=O)N1CCN(c2ccc(OC[C@H]3CO[C@](Cn4ccnc4)(c4ccc(Cl)cc4Cl)O3)cc2)CC1", "strain": "Isogenic isolate 7 MDR1 (25X)", "measure": "MIC", "value": "≤0.008 µg/mL"}
{"compound": "COC(=O)CCC(=O)O[C@H]1C[C@@H]2c3c(cc(OC)c4c5c(c(=O)oc34)C(=O)CC5)O[C@@H]2O1", "method": "agar", "measure": "MIC", "value": ">100 µM"}

Repeating the final 5 entries:

| compound | method | strain | measure | value |
|---|---|---|---|---|
| NC(N)=Nc1ccc(SCc2ccccc2)cc1 |  | ATCC 44859 | MIC80 | 250 µM |
| O=C1C(c2ccc(Cl)cc2)=[N+]([O-])c2cc[n+]([O-])cc21 |  |  | MIC | 15.63 µg/mL |
| Cc1c(N2C[C@@H](C)N[C@@H](C)C2)c(F)cn2c(=O)c(C(=O)O)cc(C3CC3)c12.Cl |  | CCH442 | MIC | >100 µg/mL |
| CC(=O)N1CCN(c2ccc(OC[C@H]3CO[C@](Cn4ccnc4)(c4ccc(Cl)cc4Cl)O3)cc2)CC1 |  | Isogenic isolate 7 MDR1 (25X) | MIC | ≤0.008 µg/mL |
| COC(=O)CCC(=O)O[C@H]1C[C@@H]2c3c(cc(OC)c4c5c(c(=O)oc34)C(=O)CC5)O[C@@H]2O1 | agar |  | MIC | >100 µM |